Results of unrelated studies side by side (data: NIAID ChemDB).

Common to all: tests in culture; organism: Haemophilus influenzae; read-out: MIC

Conditions beyond the fields shown may differ between rows. Two numbers with a dash give a range or band.

{"smiles": "CC[C@H]1OC(=O)[C@H](C)C(=O)[C@H](C)[C@@H](O[C@@H]2O[C@H](C)C[C@H](N(C)C)[C@H]2O)[C@@]2(C)C[C@@H](C)C(=NC(C)=O)[C@H](C)C(OC/C(=C\\C=C\\c3ccc([N+](=O)[O-])cc3)CO2)[C@]1(C)O", "strain": "33929 (ampicillin-resistant)", "result": "32 µg/mL"}
{"smiles": "CC[C@H]1OC(=O)[C@H](C)C(=O)[C@H](C)[C@@H](O[C@@H]2O[C@H](C)C[C@H](N(C)C)[C@H]2O)[C@](C)(OC)C[C@@H](C)C(=O)[C@H](C)[C@H]2N(CCCCn3cnc(-c4cccnc4)c3)C(=O)O[C@]12C", "strain": "33929 (ampicillin-resistant)", "result": "2 µg/mL"}
{"smiles": "CC(=O)NC[C@H]1CN(c2ccc(-c3csc(C)c3)c(F)c2)C(=O)O1", "strain": "UC 30063", "result": ">16 µg/mL"}
{"smiles": "CC[C@H]1OC(=O)[C@@](C)(F)C(=O)[C@H](C)[C@@H](O[C@@H]2O[C@H](C)C[C@H](N(C)C)[C@H]2O)[C@@]2(C)C[C@@H](C)C(=NC(C)=O)[C@H](C)[C@@H](OC/C(=N\\OCc3ccc(C(N)=O)cc3)CO2)[C@]1(C)O", "strain": "33929 (ampicillin-resistant)", "result": "2 µg/mL"}
{"smiles": "CC[C@H]1OC(=O)C[C@@H](O)[C@H](C)[C@@H](O[C@@H]2O[C@H](C)[C@@H](O)[C@H](N(C)C)[C@H]2O)C(C=O)C[C@@H](C)C(=O)/C=C/C(C)=C/[C@@H]1CO", "strain": "33929 (ampicillin-resistant)", "result": "1 µg/mL"}
{"smiles": "CC[C@H]1OC(=O)[C@H](C)C(=O)[C@H](C)[C@@H](O[C@@H]2O[C@H](C)C[C@H](N(C)C)[C@H]2O)[C@@](C)(OC/C=C/c2cnc3ccccc3c2)C[C@@H](C)C(=O)[C@H](C)[C@H]2N(N)C(=O)O[C@]12C", "strain": "DILL", "result": "4 µg/mL"}
{"smiles": "CC[C@H]1OC(=O)[C@H](C)C(=O)[C@H](C)[C@@H](O[C@@H]2O[C@H](C)C[C@H](N(C)C)[C@H]2O)[C@@]2(C)C[C@@H](C)C(=NC(C)=O)[C@H](C)[C@@H](OC/C(=N\\OCc3ccc(C(N)=O)s3)CO2)[C@]1(C)O", "strain": "33929 (ampicillin-resistant)", "result": "4 µg/mL"}
{"smiles": "C=C1COC2[C@@H](C)C(=O)[C@H](C)C[C@@](C)(OC1)[C@H](O[C@@H]1O[C@H](C)C[C@H](N(C)C)[C@H]1O)[C@@H](C)C(=O)[C@@H](C)C(=O)O[C@H](CC)[C@@]2(C)O", "strain": "33929 (ampicillin-resistant)", "result": ">64 µg/mL"}
{"smiles": "CC[C@H]1OC(=O)[C@H](C)C(=O)[C@H](C)[C@@H](O[C@@H]2O[C@H](C)C[C@H](N(C)C)[C@H]2O)[C@@]2(C)C[C@@H](C)C(=NC(C)=O)[C@H](C)C(OC/C(=C\\C=C\\c3cccnc3)CO2)[C@]1(C)O", "strain": "33929 (ampicillin-resistant)", "result": "8 µg/mL"}
{"smiles": "CC[C@H]1OC(=O)[C@H](C)C(=O)[C@H](C)[C@@H](O[C@@H]2O[C@H](C)C[C@H](N(C)C)[C@H]2O)[C@@]2(C)C[C@@H](C)C(=O)[C@H](C)C(OC/C=C/CO2)[C@]1(C)O", "strain": "33929 (ampicillin-resistant)", "result": ">64 µg/mL"}
{"smiles": "C=CCOC[C@H]1/C=C(C)/C=C/C(=O)[C@H](C)CC(C=O)[C@H](O[C@@H]2O[C@H](C)[C@@H](O)[C@H](N(C)C)[C@H]2O)[C@@H](C)[C@H](O)CC(=O)O[C@@H]1CC", "strain": "33929 (ampicillin-resistant)", "result": "1 µg/mL"}
{"smiles": "CC[C@H]1OC(=O)[C@H](C)C(=O)[C@H](C)[C@@H](O[C@@H]2O[C@H](C)C[C@H](N(C)C)[C@H]2O)[C@](C)(OC)C[C@@H](C)C(=O)[C@H](C)[C@H]2N(CCCCn3cnc(-c4cccnc4)c3)C(=O)O[C@]12C", "strain": "DILL", "result": "2 µg/mL"}
{"smiles": "CC(C)(C)[C@H](NC(=O)C(CC1CCCC1)CN(O)C=O)C(=O)N1CCN(Cc2nccs2)CC1", "strain": "Isolate 31517", "result": "8 µg/mL"}
{"smiles": "CC[C@H]1OC(=O)[C@H](C)C(=O)[C@H](C)[C@@H](O[C@@H]2O[C@H](C)C[C@H](N(C)C)[C@H]2O)[C@@]2(C)C[C@@H](C)C(=NC(C)=O)[C@H](C)C(OC/C(=C\\C=C\\c3cccc([N+](=O)[O-])c3)CO2)[C@]1(C)O", "strain": "33929 (ampicillin-resistant)", "result": "16 µg/mL"}
{"smiles": "CC(=O)NC[C@H]1CN(c2ccc(-c3ncon3)c(F)c2)C(=O)O1", "strain": "UC 30063", "result": ">16 µg/mL"}
{"smiles": "CC[C@H]1OC(=O)[C@@](C)(F)C(=O)[C@H](C)[C@@H](O[C@@H]2O[C@H](C)C[C@H](N(C)C)[C@H]2O)[C@@]2(C)C[C@@H](C)C(=O)[C@H](C)[C@@H](OC/C(=N\\OCc3ccc(-n4cccn4)nc3)CO2)[C@]1(C)O", "strain": "33929 (ampicillin-resistant)", "result": "4 µg/mL"}
{"smiles": "CC[C@H]1OC(=O)[C@H](C)C(=O)[C@H](C)[C@@H](O[C@@H]2O[C@H](C)C[C@H](N(C)C)[C@H]2O)[C@@]2(C)C[C@@H](C)C(=NC(C)=O)[C@H](C)C(OC/C(=C\\C#Cc3ccc(N)cc3)CO2)[C@]1(C)O", "strain": "33929 (ampicillin-resistant)", "result": "8 µg/mL"}
{"smiles": "CC(=O)NC[C@H]1CN(c2ccc(C3CCS(=O)(=O)CC3)c(F)c2)C(=O)O1", "strain": "UC 30063", "result": "2–4 µg/mL"}
{"smiles": "C=CCNC(=O)OC[C@H]1/C=C(C)/C=C/C(=O)[C@H](C)CC(C=O)[C@H](O[C@@H]2O[C@H](C)[C@@H](O)[C@H](N(C)C)[C@H]2O)[C@@H](C)[C@H](O)CC(=O)O[C@@H]1CC", "strain": "33929 (ampicillin-resistant)", "result": "1 µg/mL"}
{"smiles": "CC[C@H]1OC(=O)[C@@](C)(F)C(=O)[C@H](C)[C@@H](O[C@@H]2O[C@H](C)C[C@H](N(C)C)[C@H]2O)[C@@]2(C)C[C@@H](C)C(=NC(C)=O)[C@H](C)[C@@H](OC/C(=N\\OCc3ccc4nc(N)sc4c3)CO2)[C@]1(C)O", "strain": "33929 (ampicillin-resistant)", "result": "4 µg/mL"}
{"smiles": "CC(=O)NC[C@H]1CN(c2ccc(-c3cnc(C(C)=O)s3)c(F)c2)C(=O)O1", "strain": "UC 30063", "result": ">16 µg/mL"}
{"smiles": "CC[C@H]1OC(=O)C[C@@H](O)[C@H](C)[C@@H](O[C@@H]2O[C@H](C)[C@@H](O)[C@H](N(C)C)[C@H]2O)C(C=O)C[C@@H](C)C(=O)/C=C/C(C)=C/[C@@H]1COCOCc1ccccc1", "strain": "33929 (ampicillin-resistant)", "result": "4 µg/mL"}
{"smiles": "CC[C@H]1OC(=O)[C@H](C)C(=O)[C@H](C)[C@@H](O[C@@H]2O[C@H](C)C[C@H](N(C)C)[C@H]2O)[C@@]2(C)C[C@@H](C)C(=NC(C)=O)[C@H](C)C(OC/C(=C\\c3ccccc3)CO2)[C@]1(C)O", "strain": "33929 (ampicillin-resistant)", "result": "32 µg/mL"}
{"smiles": "CC(=O)NC[C@H]1CN(c2ccc(-c3nsc(C#N)n3)c(F)c2)C(=O)O1", "strain": "UC 30063", "result": ">16 µg/mL"}
{"smiles": "CC[C@H]1OC(=O)[C@H](C)[C@@H](O[C@H]2C[C@@](C)(OC)[C@@H](O)[C@H](C)O2)[C@H](C)[C@@H](O[C@H]2O[C@@H](C)C[C@@H](N(C)C)[C@@H]2O)[C@](C)(O)C[C@@H](C)C(=O)[C@H](C)[C@@H](O)[C@]1(C)O", "strain": "33929 (ampicillin-resistant)", "result": "4 µg/mL"}

Again, the opening 3 rows:

smiles,strain,result
CC[C@H]1OC(=O)[C@H](C)C(=O)[C@H](C)[C@@H](O[C@@H]2O[C@H](C)C[C@H](N(C)C)[C@H]2O)[C@@]2(C)C[C@@H](C)C(=NC(C)=O)[C@H](C)C(OC/C(=C\C=C\c3ccc([N+](=O)[O-])cc3)CO2)[C@]1(C)O,33929 (ampicillin-resistant),32 µg/mL
CC[C@H]1OC(=O)[C@H](C)C(=O)[C@H](C)[C@@H](O[C@@H]2O[C@H](C)C[C@H](N(C)C)[C@H]2O)[C@](C)(OC)C[C@@H](C)C(=O)[C@H](C)[C@H]2N(CCCCn3cnc(-c4cccnc4)c3)C(=O)O[C@]12C,33929 (ampicillin-resistant),2 µg/mL
CC(=O)NC[C@H]1CN(c2ccc(-c3csc(C)c3)c(F)c2)C(=O)O1,UC 30063,>16 µg/mL